Reference: publication PMC8059821 (2021)

Molecular target: SARS2-RBD-Fc (SARS-CoV-2, UniProt P0DTC2)
Assay: SPR

B1: monomeric tagged soluble pangolin ACE2 (pangolin ACE2-CT) (domain or fragment)
chain: QSTSDEEAKTFLEKFNSEAEELSYQSSLASWNYNTNITDENVQKMNVAGAKWSTFYEEQSKIAKNYQLQNIQNDTIKRQLQALQLSGSSALSADKNQRLNTILNTMSTIYSTGKVCNPGNPQECSLLEPGLDNIMESSKDYNERLWAWEGWRSEVGKQLRPLYEEYVVLKNEMARANHYEDYGDYWRGDYEAEGANGYNYSRDHLIEDVEHIFTQIKPLYEHLHAYVRAKLMDNYPSHISPTGCLPAHLLGDMWGRFWTNLYPLTVPFRQKPNIDVTDAMVNQTWDANRIFKEAEKFFVSVGLPKMTQTFWENSMLTEPGDGRKVVCHPTAWDLGKHDFRIKMCTKVTMDDFLTAHHEMGHIQYDMAYAMQPYLLRNGANEGFHEAVGEIMSLSAATPKHLKNIGLLPPDFYEDNETEINFLLKQALTIVGTLPFTYMLEKWRWMVFSGQIPKEQWMKKWWEMKREIVGVVEPVPHDETYCDPASLFHVANDYSFIRYYTRTIYQFQFQEALCQTAKHEGPLHKCDISNSAEAGQKLLQMLSLGKSKPWTLALERVVGTKNMDVRPLLNYFEPLLTWLKEQNKNSFVGWNTDWSPY
Question: B1 was tested. Which Kd did it give?
Answer: 986 nM
